# Reference: PubChem BioAssay AID651958 (The Scripps Research Institute Molecular Screening Center, 2012)
# The entries are a selection whose mix differs from that of the whole data set. The source made the active and inactive calls. Cut-off read from the data, not from the text of the source: active = inhibition above about 30%; inactive = the rest.
# Tested on: Crimean-Congo hemorrhagic fever virus L polyprotein viral ovarian tumor (vOTU) protease domain
# Assay: CCHFV vOTU protease inhibitors, primary screen, biochemical, Pep-AMC substrate, fluorescence (AID 651958); note: 0% = vehicle wells with enzyme and 100% = no enzyme wells
# Conditions: at 11.5 µM, stronger effect = higher value
row,Structure (SMILES),inhibition
1,O=C(NC(Sc1ccncn1)C(Cl)(Cl)Cl)c1ccccc1 (stereo not drawn),inactive: 0.03%
2,CC(=O)N1C2C3N(C(C)=O)C1C1N(C(C)=O)C(C(N1C(C)=O)N3C(C)=O)N2C(C)=O,inactive: 6.6%
3,O=[N+]([O-])c1cccc2n[nH]nc12,inactive: 14.2%
4,Cc1ccc(NP(=O)(Oc2ccccc2)Oc2ccccc2)nc1,inactive: 3.41%
5,O=[N+]([O-])c1cc([N+](=O)[O-])c(CCNc2ccccc2)c([N+](=O)[O-])c1,inactive: 22.1%
6,CCc1nc2c(n1)c1c(non1O)c1c2no[n+]1[O-],inactive: 6.31%
7,COc1ccc(C2=NCC(CBr)S2)cc1 (stereo not drawn),inactive: -17.6%
8,CC(C)=N/N=C(\N)N[N+](=O)[O-],inactive: -14.5%
9,CC(C)c1nc(Nc2ccccc2)n(P(=O)(N(C)C)N(C)C)n1,inactive: -4.69%
10,CN(C)C(=O)OCCc1n(C)cc[n+]1C,inactive: -0.56%
11,c1cc(-c2nn[nH]n2)ccc1-c1nn[nH]n1,inactive: -7.78%
12,CC1CCN(C(=O)Oc2c(Cl)cc(Cl)c3cccnc23)CC1,inactive: -0.8%
13,Nc1ccc([As](=O)(O)c2ccc(N)cc2)cc1,inactive: 4.73%
14,C[N+]1=C2C=CC=CC=C2SC12C([N+](=O)[O-])=CC([N+](=O)[O-])=C[C-]2[N+](=O)[O-] (stereo not drawn),inactive: 15.8%
15,CCN(/C(=N/P(=O)(N1CCOCC1)N1CCOCC1)N1CCOCC1)c1ccc(OC)cc1,inactive: 2.13%
16,O=C(Nc1cc([As](=O)(O)O)ccc1O)c1ccccc1,inactive: 12%
17,O=P1(N(CCCl)CCCl)OCCCS1 (stereo not drawn),inactive: -3.47%
18,O=[N+]([O-])c1cccc(NC2=NCC(CBr)S2)c1 (stereo not drawn),inactive: -1.6%
19,COC(=O)C1(C)COP(=O)(Nc2ccccc2)OC1 (stereo not drawn),inactive: 13.4%
20,O=C(O)CNc1ccc([As](=O)(O)O)cc1,inactive: -6.27%
21,CC(C)(C)C(=O)NC(Sc1ccncn1)C(Cl)(Cl)Cl (stereo not drawn),inactive: 13.4%
22,O=[N+]([O-])c1ncn(CCn2ncnc2[N+](=O)[O-])n1,inactive: 4.23%
23,CCCCOc1ccc(C(=O)NCC2(N3CCCCC3)CCCCC2)cc1OC,inactive: -15.3%
24,Cc1cc(SC(NC(=O)c2ccccc2)C(Cl)(Cl)Cl)nc(C(C)C)n1 (stereo not drawn),inactive: -5.43%
25,COP(=O)(OC)N1CC1c1ccccc1 (stereo not drawn),inactive: -10.4%
26,CC1CCNP(=O)(N(CCCl)CCCl)O1 (stereo not drawn),inactive: 8.31%
27,O=C(O)C(O)c1ccc(N(CCCl)CCCl)cc1 (stereo not drawn),inactive: -11.8%
28,CCOC(=O)Nc1ccc([As](=O)(O)O)c(O)c1,inactive: 12.7%
